Compound potency records, mixed from different reports. Data source: NIAID ChemDB in PubChem.

Common to all: tests in culture; species: Punta Toro virus; cell line: VERO; read-out: EC50

Rows are shuffled and stem from different studies. ECn is the concentration giving n% inhibition of infection, replication or growth. Blank or dashed fields: not listed here.

| SMILES | strain or isolate | read by | value |
|---|---|---|---|
| COC(=O)[C@]1(C)CCC[C@]2(C)c3cc(Br)c4[nH]ccc4c3CCC12 |  | plaque count | >4 µg/mL |
| CCC(Sc1ncnc2c1cnn2COCC(O)CO)C(N)=O |  | cytopathic effect | >400 µg/mL |
| OC[C@H]1O[C@@H](c2cc(/C=C/Br)c(F)cc2F)C[C@@H]1O |  | cytopathic effect | >16 µg/mL |
| COc1ncnc2c1cnn2Cc1cn(CCCCO)nn1 |  |  | >400 µg/mL |
| CC1(CO)CCC(Cn2nnc3c(=O)[nH]c(N)nc32)C1(C)C |  | cytopathic effect | >200 µg/mL |
| CCC(Sc1ncnc2c1cnn2COCCO)C(N)=O |  | cytopathic effect | >400 µg/mL |
| OC[C@H]1O[C@@H](c2cc(Cl)c(F)cc2F)C[C@@H]1O |  | cytopathic effect | >80 µg/mL |
| c1ccc(-c2nn3c(-c4cn(-c5ccccc5)nc4-c4ccccc4)nnc3s2)cc1 |  | cytopathic effect | >16 µg/mL |
| CC1(CO)CCC(Cn2cnc3c(=O)[nH]cnc32)C1(C)C |  | cytopathic effect | >200 µg/mL |
| CCOC(=O)C1=CSc2nnc(-c3cn(-c4ccccc4)nc3-c3ccccc3)n2N=C1N |  | cytopathic effect | >16 µg/mL |
| CCCCN=C(N)c1ncn([C@@H]2O[C@H](CO)[C@@H](O)[C@H]2O)n1 | Adames | cytopathic effect | 41 µg/mL |
| CC1=Nn2c(nnc2-c2cn(-c3ccccc3)nc2-c2ccccc2)SC1 |  | cytopathic effect | >16 µg/mL |
| CC1(C)[C@@H](CO)CC[C@@]1(C)Cn1nnc2c(=O)[nH]cnc21 |  | cytopathic effect | >400 µg/mL |
| O=c1[nH]c(=O)n(C2C[C@H](CO)[C@@H](CO)C2)cc1I |  |  | >100 µg/mL |
| Cc1cn([C@H]2OC[C@@H](CO)C2F)c(=O)[nH]c1=O |  | cytopathic effect | >80 µg/mL |
| CC1(C)[C@@H](CCO)C[C@H]1n1cnc2c(N)nc(N)nc21 |  | cytopathic effect | >400 µg/mL |
| Cc1nn2c(-c3cn(-c4ccccc4)nc3-c3ccccc3)nnc2s1 |  | cytopathic effect | >3.2 µg/mL |
| CC1(CO)CCC(Cn2nnc3c(N)nc(N)nc32)C1(C)C |  | cytopathic effect | >200 µg/mL |
| CC1(CO)CCC(Cn2nnc3c(N)ncnc32)C1(C)C |  | cytopathic effect | >40 µg/mL |
| CC(=O)Nn1c(-c2cn(-c3ccccc3)nc2-c2ccccc2)n[nH]c1=S |  | cytopathic effect | >80 µg/mL |
| CC(C)Nc1ncnc2c1ncn2C1C[C@H](CO)[C@@H](CO)C1 |  |  | >100 µg/mL |
| CC1(CO)CCC(Cn2ccc(=O)[nH]c2=O)C1(C)C |  | cytopathic effect | >400 µg/mL |
| CC1(C)[C@@H](CO)CC[C@@]1(C)Cn1cc(Br)c(=O)[nH]c1=O |  | cytopathic effect | >400 µg/mL |
| CC1(C)[C@@H](CCO)C[C@H]1n1nnc2c(Cl)nc(N)nc21 |  | cytopathic effect | >200 µg/mL |
| CC1(CO)CCC(Cn2nnc3c(Cl)nc(N)nc32)C1(C)C |  | cytopathic effect | >100 µg/mL |
| COC(=O)[C@]1(C)CCC[C@]2(C)c3cc4cc[nH]c4cc3CCC12 |  | plaque count | >4 µg/mL |
| COC(=N)c1ncn([C@@H]2O[C@H](CO)[C@@H](O)[C@H]2O)n1 | Adames | cytopathic effect | 201 µg/mL |
| Nc1ncnc2c1ncn2[C@@H]1O[C@H](C=NOCc2ccccc2)[C@@H](O)[C@H]1O |  | cytopathic effect | >100 µg/mL |
| O=c1[nH]cnc2c1ncn2C1C[C@H](CO)[C@@H](CO)C1 |  |  | >100 µg/mL |
| CC(=O)OC[C@H]1O[C@@H](n2ncc(=O)[nH]c2=O)[C@H](OC(C)=O)[C@@H]1OC(C)=O | Adames | cytopathic effect | 1.77 µg/mL |
| COC(=O)[C@]1(C)CCC[C@]2(C)c3cc(Br)c4nc(C(F)(F)F)[nH]c4c3CCC12 |  | plaque count | >4 µg/mL |
| CC1(C)[C@@H](CO)CC[C@@]1(C)Cn1nnc2c(Cl)ncnc21 |  | cytopathic effect | >400 µg/mL |
| CC1(C)[C@@H](CCO)C[C@H]1n1nnc2c(N)ncnc21 |  | cytopathic effect | >100 µg/mL |
| CNC(=O)c1ncn([C@@H]2O[C@H](CO)[C@@H](O)[C@H]2O)n1 | Adames | cytopathic effect | >320 µg/mL |
| NC(=O)CSc1ncnc2c1cnn2COCC(O)CO |  | cytopathic effect | >400 µg/mL |
| Cc1cn([C@@H]2OC[C@H](CO)[C@H]2N=[N+]=[N-])c(=O)[nH]c1=O |  | cytopathic effect | >80 µg/mL |
| CSc1ncnc2c1cnn2Cc1cnnn1CCCCO |  |  | >400 µg/mL |
| CC(=O)OC[C@H]1O[C@@H](n2ncc(=O)[nH]c2=S)C(OC(C)=O)C1OC(C)=O | Adames | cytopathic effect | 6.5 µg/mL |
| Nc1ncnc2c1ncn2[C@@H]1O[C@H](C=NO)[C@@H](O)[C@H]1O |  | cytopathic effect | >0.4 µg/mL |
| COC(=O)[C@]1(C)CCC[C@]2(C)c3ccc4nc5c(nc4c3CCC12)CCCC5 |  | plaque count | >4 µg/mL |
| S=c1[nH]n2c(-c3cn(-c4ccccc4)nc3-c3ccccc3)nnc2s1 |  | cytopathic effect | >80 µg/mL |
| CC1(C)OC2C(O1)[C@@H](COS(=O)(=O)NC(=O)OC1O[C@H](COCc3ccccc3)[C@@H](OCc3ccccc3)[C@H](OCc3ccccc3)[C@H]1OCc1ccccc1)O[C@H]2n1ncc(=O)[nH]c1=O | Adames | cytopathic effect | 54.1 µg/mL |
| Nn1c(-c2cn(-c3ccccc3)nc2-c2ccccc2)n[nH]c1=S |  | cytopathic effect | >16 µg/mL |
| Cc1cn([C@@H]2OC[C@H](CO)[C@H]2O)c(=O)[nH]c1=O |  | cytopathic effect | >80 µg/mL |
| OCCCCn1cc(Cn2ncc3c(SCc4ccccc4)ncnc32)nn1 |  |  | >400 µg/mL |